Taken from: PubChem BioAssay AID1259414 (Drosophila RNAi Screening Center, 2018)

Test: 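Genome-wide screen for host control of endosymbiont load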 (primary screen)
System: Drosophila JW18 cells infected with Wolbachia
Reagents: long dsRNA against Drosophila genes, 0.25 µg dsRNA per well of a 384-well plate
Timing: 5 days
Conditions: cells persistently infected with Wolbachia before knock-down; no added drug
Detection: 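Automated imaging of bacterial rRNA staining divided by host cell count, reported as plate-normalised robust z-score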
Scale: Wolbachia per cell robust z: higher = more Wolbachia per host cell than the plate typical
Active means: 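Active if absolute robust z reaches 1.5 in two or more of three replicates, leaving out multi- or no-target dsRNAs, genes unexpressed in JW18 and A1 wells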
In all, the deposit lists about 24,000 reagents; shown is a random part of those that have a named target and a result. Over the whole deposit, about 1,210 (5%) are marked active. 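Inactive calls also include excluded dsRNAs with several or no targets, genes unexpressed in JW18, and well A1, regardless of score.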 Entries without a mark were called inactive. Names joined by + are all predicted targets of the reagent.

Gene	PubChem SID	Wolbachia per cell robust z, rep 1	Wolbachia per cell robust z, rep 2	Wolbachia per cell robust z, rep 3
corto (GeneID 40616)	SID104202345	-0.0137 (active)	-3.27	-4.7
corto (GeneID 40616)	SID104204322	0.118	-0.311	-0.26
CG4835 (GeneID 38619)	SID104190244	1.38	0.619	1.32
CG4835 (GeneID 38619)	SID104202849	0.0921	-0.201	0.641
CG10344 (GeneID 37565)	SID104183858	0.039	-0.92	0.646
CG10344 (GeneID 37565)	SID104203169	0.0372	-0.356	-0.74
Orc3 + CG34315	SID104187434	0.829	0.163	0.42
Orc3 + CG34315	SID104203917	-0.978	-0.652	0.137
CG5883 (GeneID 39352)	SID104190344	0.278	-1.02	-0.528
rush (GeneID 31105)	SID104198360	0.271	-0.485	-0.518
Rpt1 (GeneID 35701)	SID104187334	3.11 (active)	1.9	2.26
Gint3 + CG42306	SID104186726	-0.537	0.247	1.35
Gint3 + CG42306	SID104208429	0.966	1.85	0.177
CG42752 (GeneID 10178875)	SID104218912	-2.51	0.36	-0.014
CG9263 (GeneID 34770)	SID104182968	0.961	-0.573	0.0807
Ehbp1 (GeneID 36912)	SID104186353	1.2	0.333	1.65
Ehbp1 (GeneID 36912)	SID104208550	1.89	0.306	-0.348
GLaz (GeneID 36447)	SID104187223	0.713	0.319	0.572
Grasp65 (GeneID 40177)	SID104190709	0.333	0.108	0.476
Grasp65 (GeneID 40177)	SID104207513	0.454	1.04	-0.0295
Cyp4ac1 (GeneID 33754)	SID104183094	-1.46	-2	0.869
ovo (GeneID 31429)	SID104197842	3.83	0.413	0.596
ovo (GeneID 31429)	SID104204345	-0.543	1.85	-0.452
ovo (GeneID 31429)	SID104218367	0.011	-0.49	-1.23
CG13047 (GeneID 39790)	SID104189720	-1.09	-0.356	0.0944
CG13047 (GeneID 39790)	SID104203637	-4.54	-0.514	-0.666
Liprin-gamma (GeneID 37552)	SID104183885	1.12	0.764	0.0288
Pitslre (GeneID 40292)	SID104191666	1.06 (active)	2.28	1.64
Pitslre (GeneID 40292)	SID104202703	-0.818	-0.258	-1.49
eIF3c (GeneID 37005)	SID104186697	3.46 (active)	4.18	1.95
Veneno (GeneID 41000)	SID104196329	-0.571	1.04	0.686
wek (GeneID 48785)	SID104183353	-3.12	0.4	0.168

6 entries already listed, sorted by “Wolbachia per cell robust z, rep 3”, lowest first:
Gene	PubChem SID	Wolbachia per cell robust z, rep 1	Wolbachia per cell robust z, rep 2	Wolbachia per cell robust z, rep 3
Ehbp1 (GeneID 36912)	SID104208550	1.89	0.306	-0.348
Grasp65 (GeneID 40177)	SID104207513	0.454	1.04	-0.0295
CG9263 (GeneID 34770)	SID104182968	0.961	-0.573	0.0807
Grasp65 (GeneID 40177)	SID104190709	0.333	0.108	0.476
GLaz (GeneID 36447)	SID104187223	0.713	0.319	0.572
Ehbp1 (GeneID 36912)	SID104186353	1.2	0.333	1.65

The list goes on.
Gene	PubChem SID	Wolbachia per cell robust z, rep 1	Wolbachia per cell robust z, rep 2	Wolbachia per cell robust z, rep 3
CG7483 (GeneID 40987)	SID104196041	-0.372	-0.695	-0.93
CG7483 (GeneID 40987)	SID104201903	1.79 (active)	2.31	0.7
CG7483 (GeneID 40987)	SID104204946	-1.99	0.487	0.425
CAH2 (GeneID 39390)	SID104190538	0.723	-0.476	-3.85
scat (GeneID 47942)	SID104182514	0.464	-0.0112	-0.125
scat (GeneID 47942)	SID104205620	-0.242	1.65	1.44
Mnat9 (GeneID 43726)	SID104194117	-3.74	-0.882	-0.653
CG2003 (GeneID 43761)	SID104195203	-0.9	-1.14	-0.343
CG12910 (GeneID 36082)	SID104186017	-1.1	-1.34	-5.43
CG11664 (GeneID 31033)	SID104198442	0.168	-2.66	1.11
CG31266 (GeneID 42071)	SID104195539	-0.0984	0.305	0.606
cer (GeneID 37229)	SID104185784	-0.13	0.294	0.668
CG14277 (GeneID 34129)	SID104182172	0.286	0.881	-6.16
Sarm (GeneID 38895)	SID104188698	-0.141	-0.975	0.222
Sarm (GeneID 38895)	SID104188699	-0.0168	0.27	0.23
Sarm (GeneID 38895)	SID104189830	-0.616	-1.21	-0.354
Sarm (GeneID 38895)	SID104189831	-2.92	-1.14	0.761
Sarm (GeneID 38895)	SID104190719	0.26	-1.23	0.196
Sarm (GeneID 38895)	SID104190721	0.316	-1.29	-0.98
Sarm (GeneID 38895)	SID104206468	1.13	0.0675	0.245
